The test system of assay [1] is Human immunodeficiency virus type 1 reverse transcriptase (Human immunodeficiency virus 1), Q72547 [Y181I].
Assay [2] has as its system Human immunodeficiency virus type 1 reverse transcriptase (Human immunodeficiency virus 1), Q72547 [L100I].
Assay [3] deals with Human immunodeficiency virus 1. Kind of assay: Fold resistance, ratio of EC50 for HIV-1 harboring NNTRI-resistant reverse transcriptase Y181C mutant infected in human MT4 cells to EC50 for wild type HIV-1 NL4-3 infected in human MT4 cells. Type of assay: functional. Put shortly: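 MT-4 cells infected with HIV-1 mutant (K103N or Y181C) or wild-type NL4-3, with drug present. […] Fold resistance is the mutant EC50 divided by the wild-type NL4-3 EC50. EC50 values are means of at least two experiments.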

For assay [4], the system named is Human immunodeficiency virus 1. Kind of assay: Fold resistance, ratio of EC50 for HIV-1 harboring NNTRI-resistant reverse transcriptase K103N mutant infected in human MT4 cells to EC50 for wild type HIV-1 NL4-3 infected in human MT4 cells. Type of assay: functional.
Assay [5] relates to Human immunodeficiency virus 1. The assay can be described thus: Fold resistance, ratio of EC50 for HIV-1 harboring NNTRI-resistant reverse transcriptase Y188L mutant infected in human MT4 cells to EC50 for wild type HIV-1 NL4-3 infected in human MT4 cells. Type of assay: functional. Put shortly:
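HIV-1 NL4-3 (wt) or Y188L mutant infection of MT-4 cells across a range of drug concentrations. Viable cells were counted by MTT at day 5 post-infection. […] Fold resistance is mutant EC50 over wt EC50. Means of at least two experiments.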

For assay [6], the system named is Human immunodeficiency virus 1. The assay can be described thus: Fold resistance, ratio of ID50 for HIV-1 recombinant NNTRI-resistant reverse transcriptase Y181I mutant to ID50 for wild type HIV-1 recombinant reverse transcriptase. The gist of the method: (§1)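 Recombinant wt or mutant HIV-1 RT, purified to >95%, at 2-4 nM. RNA-dependent DNA polymerase activity with 0.5 µg poly(rA)/oligo(dT)10:1 (0.3 µM 3'-OH ends), 10 µM [3H]-dTTP and 8% final DMSO. Incorporation was sampled at 2-min intervals. ID50 came from fitting to a fully non-competitive model. Ratio is ID50 mutant/ID50 wt. Means of at least three experiments.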

Assay [7] concerns Human immunodeficiency virus 1. Kind of assay: Fold resistance, ratio of ID50 for HIV-1 recombinant NNTRI-resistant reverse transcriptase L100I mutant to ID50 for wild type HIV-1 recombinant reverse transcriptase. The gist of the method:
as §1

From ChEMBL document CHEMBL3286172, “Exploring the role of 2-chloro-6-fluoro substitution in 2-alkylthio-6-benzyl-5-alkylpyrimidin-4(3H)-ones: effects in HIV-1-infected cells and in HIV-1 reverse transcriptase enzymes” (J Med Chem, 2014) come the findings set out here.

Consider `CCCSc1nc(C(C)c2c(F)cccc2Cl)c(CC)c(=O)[nH]1` (racemic), for which, in assay [1], the ID50 was 4.7 µM. On to `CC[C@@H](C)Sc1nc([C@H](C)c2c(F)cccc2Cl)cc(=O)[nH]1`, for which the results for the ID50 in assay [1] and in assay [2] were 14.1 µM and 0.0687 µM, respectively. Moreover, the pID50 in assay [1] was 4.85. Turning to `CC[C@H](C)Sc1nc([C@H](C)c2c(F)cccc2Cl)c(C)c(=O)[nH]1` (racemic), in assay [3], the “Ratio EC50” value turned out to be 58407. The figures for the ID50 in assay [1] and in assay [2] were greater than 40 µM and 0.596 µM, respectively. Besides, the pID50 in assay [1] was less than 4.4. Consider `CCC(c1nc(SC(C)C)[nH]c(=O)c1C)c1c(F)cccc1F` (racemic), for which the ID50 in assay [1] was 4.1 µM. `CCc1c(C(C)c2c(F)cccc2F)nc(SC(C)CC)[nH]c1=O` (racemic) yielded an ID50 in assay [1] of 4.6 µM. For `CCC(c1nc(SC2CCCC2)[nH]c(=O)c1C)c1c(F)cccc1F` (racemic), in assay [1], the ID50 worked out at 4.9 µM.

Consider `CC[C@@H](C)Sc1nc([C@H](C)c2c(F)cccc2Cl)c(C)c(=O)[nH]1`, for which the “Ratio EC50” value turned out to be 79 in assay [3], 14 in assay [4] and 351 in assay [5]. In addition, the ID50 in assay [1] stood at 3.55 µM; in assay [2], 0.041 µM. The pID50 in assay [1] is 5.45. For the compound `CC[C@H](C)Sc1nc([C@H](C)c2c(F)cccc2Cl)cc(=O)[nH]1` (racemic), in assay [1], the ID50 was greater than 20 µM and the pID50 was less than 4.7. This compound displayed an ID50 in assay [2] of 0.649 µM.

Regarding `CCC(C)Sc1nc(C(C)c2c(F)cccc2Cl)c(C)c(=O)[nH]1` (racemic), the figures for the “Ratio EC50” value in assay [3] and in assay [4] were 1300 and 1067, respectively. Also, the ID50 in assay [1] was found to be 35 µM; in assay [2], 0.075 µM.

With `Cc1c(C(C)c2c(F)cccc2Cl)nc(SC(C)C)[nH]c1=O` (racemic), the entries for the “Ratio EC50” value in assay [3], in assay [4] and in assay [5] were 8333, 4667 and 113333, respectively. For `CCCCSc1nc(O)c(C)c(C(C)c2c(F)cccc2F)n1` (racemic), the ID50 in assay [1] was found to be 4.6 µM. On to `CCCCSc1nc(C(CC)c2c(F)cccc2Cl)c(C)c(=O)[nH]1` (racemic), for which the ID50 in assay [1] was 6.1 µM. For `CC[C@@H](C)Sc1nc([C@@H](C)c2c(F)cccc2Cl)cc(=O)[nH]1`, in assay [1], the ID50 was greater than 20 µM and the pID50 is less than 4.7. This compound also registered an ID50 in assay [2] of 0.148 µM.

In assay [1], `Cc1c(O)nc(SC(C)C)nc1C(C)c1c(F)cccc1F` (racemic) displayed an ID50 of 47 µM. For the compound `CCCCSc1nc(C(C)c2c(F)cccc2Cl)cc(=O)[nH]1` (racemic), the “Ratio EC50” value in assay [3] turned out to be 13000; in assay [4], 3667; in assay [5], 18667. Moreover, in assay [6], the Ratio stood at 1520. For the same compound, the ID50 in assay [1] worked out at 15.2 µM. Turning to `CCC(c1nc(SC(C)C)[nH]c(=O)c1C)c1c(F)cccc1Cl` (racemic), the ID50 in assay [1] is 7.7 µM.

Compound `CCc1c(C(C)c2c(F)cccc2F)nc(SC(C)C)[nH]c1=O` (racemic) returned an ID50 in assay [1] of 129 µM. Compound `CCc1c(C(C)c2c(F)cccc2Cl)nc(SC(C)C)[nH]c1=O` (racemic) displayed an ID50 in assay [1] of 27 µM. With `CC[C@H](C)Sc1nc([C@@H](C)c2c(F)cccc2Cl)cc(=O)[nH]1`, in assay [1], the ID50 was greater than 20 µM and the pID50 is less than 4.7. Also, in assay [2], the ID50 was 2.22 µM. In the case of `CCC(C)Sc1nc(O)c(C)c(C(C)c2c(F)cccc2F)n1` (racemic), the ID50 in assay [1] turned out to be 96 µM. Regarding `CCCCSc1nc(C(C)c2c(F)cccc2F)c(CC)c(=O)[nH]1` (racemic), the ID50 in assay [1] came out at 3 µM. The compound `CC(C)Sc1nc(C(C)c2c(F)cccc2Cl)cc(=O)[nH]1` (racemic) yielded an ID50 in assay [1] of 10 µM.

Regarding `CC(c1cc(=O)[nH]c(SC2CCCC2)n1)c1c(F)cccc1Cl` (racemic), the ID50 in assay [1] stood at 16.6 µM.

In assay [1], `CC[C@H](C)Sc1nc([C@@H](C)c2c(F)cccc2Cl)c(C)c(=O)[nH]1` yielded an ID50 greater than 40 µM and a pID50 of less than 4.4. In assay [2], this compound had an ID50 of 0.913 µM.

Regarding `Cc1c([C@H](C)c2c(F)cccc2Cl)nc(SC(C)C)[nH]c1=O`, the “Ratio EC50” value in assay [3] was found to be 5000; in assay [4] it was 333; in assay [5] it was 11667. Besides, the ID50 in assay [1] stood at 21.2 µM; in assay [2] it was 0.177 µM. The compound `CCCSc1nc(C(CC)c2c(F)cccc2Cl)c(C)c(=O)[nH]1` (racemic) had an ID50 in assay [1] of 3.5 µM. In assay [1], `CCCCSc1nc(C(C)c2c(F)cccc2Cl)c(C)c(=O)[nH]1` (racemic) came in with an ID50 of 60 µM.

With `Cc1c([C@@H](C)c2c(F)cccc2Cl)nc(SC(C)C)[nH]c1=O`, the Ratio in assay [7] was 0.4. Also, the ID50 is greater than 40 µM in assay [1] and 1.49 µM in assay [2].

`CCCSc1nc(C(C)c2c(F)cccc2F)c(CC)c(=O)[nH]1` (racemic) registered an ID50 in assay [1] of 2.8 µM. In assay [1], `CCC(C)Sc1nc(C(CC)c2c(F)cccc2F)c(C)c(=O)[nH]1` (racemic) showed an ID50 of 4 µM. The same measure, in the same setting: the figure for `CCC(c1nc(SC2CCCC2)[nH]c(=O)c1C)c1c(F)cccc1Cl` (racemic) is 6 µM; for `CCc1c(C(C)c2c(F)cccc2Cl)nc(SC(C)CC)[nH]c1=O` (racemic) it is 16.2 µM.

In assay [1], `CCCCSc1nc(C(CC)c2c(F)cccc2F)c(C)c(=O)[nH]1` (racemic) displayed an ID50 of 4.6 µM. Regarding `CCC(C)Sc1nc(C(CC)c2c(F)cccc2Cl)c(C)c(=O)[nH]1` (racemic), the ID50 in assay [1] came to 5.9 µM. Regarding `CCC(C)Sc1nc(C(C)c2c(F)cccc2Cl)cc(=O)[nH]1` (racemic), the ID50 in assay [1] came out at 21.1 µM; in assay [2] it was 0.2 µM. Consider `CCc1c(C(C)c2c(F)cccc2Cl)nc(SC2CCCC2)[nH]c1=O` (racemic), for which, in assay [1], the ID50 worked out at 15.6 µM. Compound `CCCSc1nc(C(C)c2c(F)cccc2Cl)cc(=O)[nH]1` (racemic) gave an ID50 in assay [1] of 15 µM. In assay [1], `CCCSc1nc(C(C)c2c(F)cccc2F)c(C)c(=O)[nH]1` (racemic) returned an ID50 of 5.4 µM. In turn, `CCCSc1nc(C(CC)c2c(F)cccc2F)c(C)c(=O)[nH]1` (racemic) registered an ID50 in assay [1] of 3.6 µM.

As for `CCCCSc1nc(C(C)c2c(F)cccc2Cl)c(CC)c(=O)[nH]1` (racemic), the ID50 in assay [1] is 13.1 µM.

In the case of `CC[C@@H](C)Sc1nc([C@@H](C)c2c(F)cccc2Cl)c(C)c(=O)[nH]1`, the “Ratio EC50” value in assay [3] is given as 811; in assay [4] it was 135; in assay [5] it was 3006. Further, the ID50 in assay [1] was greater than 40 µM; in assay [2], 0.524 µM. In assay [1], the pID50 was less than 4.4. `CCc1c(C(C)c2c(F)cccc2F)nc(SC2CCCC2)[nH]c1=O` (racemic) returned an ID50 in assay [1] of 1.8 µM.
